The values below are quoted from earlier work in paper PMC8619967.

For this data set, the target named is HIV-1 capsid (Human immunodeficiency virus 1) (UniProt O93182).

For the substance CPSF6 FG-motif (from UniProt Q16630), the Kd (in general, the concentration at which binding is half-saturated) was 80 µM.
